# From ChEMBL document CHEMBL1201862, “PubChem BioAssay data set” (2004)
# The other results are listed elsewhere or left out. These assays gave more results; the selection is not random. Activity calls are given as the source filed them. No cut-off for these calls is given here.
# Molecular target: T1, Pyruvate kinase (Leishmania mexicana) (UniProt Q27686)
# T1 sequence (whole entry): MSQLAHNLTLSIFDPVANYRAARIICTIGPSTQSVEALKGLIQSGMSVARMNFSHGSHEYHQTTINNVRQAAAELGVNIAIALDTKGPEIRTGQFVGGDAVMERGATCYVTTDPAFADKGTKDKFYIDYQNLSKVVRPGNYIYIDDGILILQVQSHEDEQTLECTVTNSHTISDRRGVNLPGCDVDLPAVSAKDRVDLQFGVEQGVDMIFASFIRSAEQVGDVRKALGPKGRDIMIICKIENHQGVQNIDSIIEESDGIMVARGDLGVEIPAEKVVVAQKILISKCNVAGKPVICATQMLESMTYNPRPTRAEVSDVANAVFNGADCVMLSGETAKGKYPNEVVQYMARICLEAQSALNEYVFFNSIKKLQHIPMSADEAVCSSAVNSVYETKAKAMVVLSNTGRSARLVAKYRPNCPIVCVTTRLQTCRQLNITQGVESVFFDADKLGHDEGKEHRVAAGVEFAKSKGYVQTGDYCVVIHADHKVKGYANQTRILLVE
# Test: qHTS Assay for Activators of Leishmania Mexicana Pyruvate Kinase (LmPK).
# Format: functional
row,SMILES,Potency
1,CS(=O)(=O)c1cc([N+](=O)[O-])c2no[n+]([O-])c2c1,inactive
